PubChem BioAssay AID488890 (Southern Research Specialized Biocontainment Screening …, 2010)
The entries are a selection whose mix differs from that of the whole data set. Results filed as inconclusive are left out. The rule behind the calls is not given here.

experiment: growth inhibition of non-replicating M. tuberculosis (AID 488890); conditions: Mycobacterium tuberculosis non-replicating, at 25 µM, stronger effect = higher value;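 note: plate controls were DMSO cells for no effect and high antibiotic wells for full effect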

| Structure (SMILES) | inhibition [%] |
| --- | --- |
| Nc1cccc2ccc([As](=O)(O)O)cc12 | -3.5 |
